Reference: paper PMC2912912 (BMC Structural Biology, 2010)

B1: IpgC^10-155 Ala^94Glu/Val^95Gln double mutant (domain or fragment)
chain: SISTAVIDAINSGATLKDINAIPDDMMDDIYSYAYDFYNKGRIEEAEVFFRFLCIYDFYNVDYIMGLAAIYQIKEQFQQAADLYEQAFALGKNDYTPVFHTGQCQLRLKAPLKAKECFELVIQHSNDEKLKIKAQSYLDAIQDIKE
B2: IpgC^1-151 Ala^94Glu/Val^95Gln double mutant (domain or fragment)
chain: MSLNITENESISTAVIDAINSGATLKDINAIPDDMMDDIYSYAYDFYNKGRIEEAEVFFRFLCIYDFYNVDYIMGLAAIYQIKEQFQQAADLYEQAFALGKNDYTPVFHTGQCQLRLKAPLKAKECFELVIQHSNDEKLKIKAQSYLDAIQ

Molecular target: the molecule itself
Assay: SEC

Protein | stoichiometry N
B1 | 2
B2 | 2
